Compound potency records, mixed from different reports. Data source: NIAID ChemDB in PubChem.

Shared fields: tests in culture; agent: Aspergillus fumigatus; method: agar diffusion; measure: zone

Lines come from different laboratories, so protocols vary. An empty or dashed field is not shown. Zones are inhibition diameters on agar.

smiles	tested at	strain	result
Cc1nn(-c2ccccc2)c2c1C1(C(=O)N(CCCCCCN3C(=O)C4(SCC(=O)N4c4c(C)n(C)n(-c5ccccc5)c4=O)c4ccccc43)c3ccccc31)c1c(C)nn(-c3ccccc3)c1O2	100 µg/mL	MTCC 343	13 mm
COc1ccc(CN(CC(O)C[N+](C)(C)C)[C@@H]2[C@@H](O)[C@H](O[C@@H]3O[C@H](COCC(=O)O)[C@@H](O[C@@H]4C[C@H](COCC(=O)O)[C@@H](C)[C@H](O)[C@H]4N(Cc4ccc(OC)cc4)CC(O)C[N+](C)(C)C)[C@H](O)[C@H]3N(Cc3ccc(OC)cc3)CC(O)C[N+](C)(C)C)[C@@H](COCC(=O)O)O[C@H]2C)cc1	1 mg/mL	RCMB 02568	14.5 mm
Clc1ccccc1C(c1ccccc1)(c1ccccc1)n1ccnc1	25 µg/mL	RCMB 02003	18.3 mm
Clc1ccccc1C(c1ccccc1)(c1ccccc1)n1ccnc1	0.1 µg/mL		21 mm
COC(=O)c1cc(=O)nc2sc3cc(C)ccc3n12	5000 µg/mL		7 mm
Nc1ccccc1C(=O)Nc1ccc(CC(=O)O)cc1	25 µg/mL	RCMB 02003	11.8 mm
Cc1ccc(CN(CC(O)C[N+](C)(C)C)[C@@H]2[C@@H](O)[C@H](O[C@@H]3O[C@H](COCC(=O)O)[C@@H](O[C@@H]4C[C@H](COCC(=O)O)[C@@H](C)[C@H](O)[C@H]4N(Cc4ccc(C)cc4)CC(O)C[N+](C)(C)C)[C@H](O)[C@H]3N(Cc3ccc(C)cc3)CC(O)C[N+](C)(C)C)[C@@H](COCC(=O)O)O[C@H]2C)cc1	1 mg/mL	RCMB 02568	13.4 mm
COc1ccccc1N1CCN(CC(=O)N2c3ccccc3Sc3ccccc32)CC1	0.1 µg/mL		11 mm
Nc1ccccc1C(=O)Nc1ccc(Cl)cc1	25 µg/mL	RCMB 02003	8.4 mm
Cc1nn(-c2ccccc2)c2c1C1(C(=O)N(CCCCCCN3C(=O)C4(SCC(=O)N4c4c(C)n(C)n(-c5ccccc5)c4=O)c4cc(F)ccc43)c3ccccc31)c1c(C)nn(-c3ccccc3)c1O2	100 µg/mL	MTCC 343	14 mm
C[C@@H]1[C@@H](COCC(=O)O)C[C@@H](O[C@H]2[C@H](O)[C@@H](N(Cc3ccccc3Cl)CC(O)C[N+](C)(C)C)[C@H](O[C@H]3[C@H](O)[C@@H](N(Cc4ccccc4Cl)CC(O)C[N+](C)(C)C)[C@H](C)O[C@@H]3COCC(=O)O)O[C@@H]2COCC(=O)O)[C@H](N(Cc2ccccc2Cl)CC(O)C[N+](C)(C)C)[C@H]1O	1 mg/mL	RCMB 02568	17.5 mm
CCOC(=O)C[C@H](O)C[C@H](O)CC[C@@H]1[C@@H]2C(=CCC[C@@H]2C(=O)O[C@H](C)CC)C=C[C@@H]1C	1 mg/disc		0 mm
Cc1ccc2c(c1)C1(SCC(=O)N1c1c(C)n(C)n(-c3ccccc3)c1=O)C(=O)N2CCCCCCN1C(=O)C2(c3ccccc31)c1c(C)nn(-c3ccccc3)c1Oc1c2c(C)nn1-c1ccccc1	100 µg/mL	MTCC 343	12 mm
Cc1ccc2c(c1)sc1nc(=O)cc(C(=O)NN)n12	5000 µg/mL		18 mm
Cc1c(N2C(=O)CSC23C(=O)N(CCCCCCBr)c2ccc(F)cc23)c(=O)n(-c2ccccc2)n1C	100 µg/mL	MTCC 343	0 mm
C[C@@H]1[C@@H](COCC(=O)O)C[C@@H](O[C@H]2[C@H](O)[C@@H](N(Cc3ccc(O)cc3)CC(O)C[N+](C)(C)C)[C@H](O[C@H]3[C@H](O)[C@@H](N(Cc4ccc(O)cc4)CC(O)C[N+](C)(C)C)[C@H](C)O[C@@H]3COCC(=O)O)O[C@@H]2COCC(=O)O)[C@H](N(Cc2ccc(O)cc2)CC(O)C[N+](C)(C)C)[C@H]1O	1 mg/mL	RCMB 02568	14.8 mm

A second listing of 2 rows from above:

smiles,tested at,strain,result
COC(=O)c1cc(=O)nc2sc3cc(C)ccc3n12,5000 µg/mL,,7 mm
Clc1ccccc1C(c1ccccc1)(c1ccccc1)n1ccnc1,0.1 µg/mL,,21 mm